A mixed list of measured activities; the numbers were collected in NIAID ChemDB.

All rows: growth or infection tests; agent: HIV-1; endpoint: EC50

Neighbouring rows are from separate reports. ECn is the concentration giving n% inhibition of infection, replication or growth. An empty or dashed field is not shown.

SMILES	mutations	read by	cells	strain or isolate	result
Cc1c(Sc2ccccc2)n(COCCO)c(=O)[nH]c1=O	-	p24	PBL(DAY 10) + PBL	IIIB	1.6 µM
Cc1cn([C@H]2C[C@H](N=[N+]=[N-])[C@@H](CO)O2)c(=O)[nH]c1=O	-	p24	PBMC	B101990	1 µM
C/C=C/CSc1cc(NC(=S)c2ccsc2C)ccc1Cl	-	cytopathic effect / XTT	U-937	IIIB	0.006 µM
COC(=O)[C@H](Cc1c[nH]c2ccccc12)NP(=O)(O)OC[C@H]1O[C@@H](n2cnc3cnccc32)[C@H](O)[C@@H]1O	-	p24	PBL	A012 POST-AZT	>10 µM
Cc1cn([C@H]2C[C@H](N=[N+]=[N-])[C@@H](CO)O2)c(=O)[nH]c1=O	-	p24 / ELISA	Monocytes + Monocyte	D747	0.0012 µg/mL
Clc1ccccc1/C=N/c1nc2ccccc2s1	-	cytopathic effect / MTT	MT-4	IIIB	>100 µM
CC(C)[C@H](NC(=O)c1ccc2ccccc2n1)C(=O)N[C@@H](Cc1ccccc1)[C@H](O)CN1CC[C@@H](OCc2ccncc2)C[C@H]1C(=O)NC(C)(C)C	-	p24	PBMC	Nevirapine-resistant	0.0036 µM
Cc1ccc2cccnc2c1-n1c(C)nnc1SCC(=O)Nc1ccc(S(N)(=O)=O)cc1Cl	-	-	HeLa	-	0.001 µM
Cc1cn([C@H]2C[C@H](N=[N+]=[N-])[C@@H](CO)O2)c(=O)[nH]c1=O	-	p24	PBMC	IIIB	<0.1 µM
Cc1cccc(C)c1OCC(=O)N[C@@H](Cc1ccccc1)[C@@H](O)C[C@H](Cc1ccccc1)NC(=O)[C@H](C(C)C)N1CCCNC1=O	PR-L10I L33F M46I I54V L63P A71L V77I V82A L90M	luciferase	HEK 293 + 293T	NL4-3	1.434 µM
Clc1cccc(C=Nc2nsc3ccccc23)c1	-	cytopathic effect / MTT	MT-4	IIIB	>9 µM
O=C(NCCCCN1CCCC2=C[C@H]3C[C@H](CN4CCCC[C@H]34)[C@@H]21)c1ccc(S(=O)(=O)F)cc1	-	-	-	-	>20 µM
O=[N+]([O-])c1ccccc1/C=N/c1nc2ccccc2s1	-	cytopathic effect / MTT	MT-4	IIIB	>25 µM
NS(=O)(=O)c1ccc(NC(=O)CSc2nnc(C(F)(F)F)n2-c2cccc3cccnc23)c(Cl)c1	Y188L	-	HeLa	-	0.182 µM
Cc1occc1C(=S)Nc1ccc(Cl)c(/C=N/OC(C)(C)C)c1	-	cytopathic effect / XTT	MT-2	IIIB	0.2 µM
Cc1nnc(SCC(=O)Nc2ccc(S(N)(=O)=O)cc2Cl)n1-c1cccc2cc(Br)cnc12	Y188L	-	HeLa	-	0.191 µM
COc1ccc(-c2csc(/N=C/c3ccccc3)n2)cc1	-	cytopathic effect / MTT	MT-4	IIIB	>100 µM
Cc1cc(=O)c2ccc(N=C=S)cc2o1	-	p24 / ELISA	PBMC	NL4-3	0.188 µM
O=[N+]([O-])c1ccoc1C=Nc1nsc2ccccc12	-	cytopathic effect / MTT	MT-4	IIIB	>4 µM
COc1ccc(-n2c(C)nnc2SCC(=O)Nc2ccc(S(N)(=O)=O)cc2Cl)c2ccccc12	Y188L	-	HeLa	-	0.11 µM
O=[N+]([O-])c1ccc(/C=N/c2nc3ccc(F)cc3s2)cc1	-	cytopathic effect / MTT	MT-4	IIIB	>100 µM
CC(=O)Oc1ccc(COP(=O)(OC[C@H]2CC[C@@H](n3cnc4c(=O)[nH]cnc43)O2)OC[C@H]2O[C@@H](n3cc(C)c(=O)[nH]c3=O)C[C@@H]2N=[N+]=[N-])cc1	-	cytopathic effect / MTT	C8166	IIIB	0.032 µM
CCOc1ccc2nc(/N=C/c3ccc(O)cc3)sc2c1	-	cytopathic effect / MTT	MT-4	IIIB	>100 µM
Cc1cc2c(C)cccc2c(-n2c(C)nnc2SCC(=O)Nc2ccccc2Br)c1C	Y188L	-	HeLa	-	0.158 µM
CC(=O)Oc1ccc(COP(=O)(OC[C@@H]2C[C@@H](N=[N+]=[N-])[C@H](n3cc(C)c(=O)[nH]c3=O)O2)OC[C@H]2O[C@@H](n3cc(C)c(=O)[nH]c3=O)C[C@@H]2N=[N+]=[N-])cc1	-	cytopathic effect / MTT	C8166	IIIB	0.003 µM
CC(C)(C)NC(=O)[C@@H]1C[C@@H]2CCCC[C@@H]2CN1C[C@@H](O)[C@H](Cc1ccccc1)NC(=O)[C@H](CC(N)=O)NC(=O)c1ccc2ccccc2n1	PR-G48V I54V A71T V82A	-	MT-2	RF	0.16 µM
COC(=O)[C@H](Cc1ccccc1)NP(=O)(O)OC[C@H]1O[C@@H](n2cnc3cnccc32)[C@H](O)[C@@H]1O	-	p24	PBL	A012 POST-AZT	>10 µM
Fc1ccc2nc(/N=C/c3cccc(Cl)c3)sc2c1	-	cytopathic effect / MTT	MT-4	IIIB	>100 µM
Cc1cn([C@H]2C[C@H](N=[N+]=[N-])[C@@H](COP(=O)(OCc3ccc(OC(=O)C(C)(C)C)cc3)OC[C@H]3CC[C@@H](n4cnc5c(=O)[nH]cnc54)O3)O2)c(=O)[nH]c1=O	-	cytopathic effect / MTT	C8166	IIIB	0.02 µM
Cc1cn([C@H]2C[C@H](N=[N+]=[N-])[C@@H](CO)O2)c(=O)[nH]c1=O	RT-Y181C	cytopathic effect / XTT	CEM + CEM-SS	UC781-R (RT-Y181C)	0.005 µM
CCCC(=O)Oc1ccc(COP(=O)(OC[C@@H]2O[C@H](n3cc(C)c(=O)[nH]c3=O)C[C@H]2N=[N+]=[N-])OC[C@H]2O[C@@H](n3cc(C)c(=O)[nH]c3=O)C[C@@H]2N=[N+]=[N-])cc1	-	cytopathic effect / MTT	C8166	IIIB	0.003 µM
COc1ccc(-n2c(C)nnc2SCC(=O)Nc2ccc(C)cc2Cl)c2ccccc12	Y188L	-	HeLa	-	0.24 µM

A second listing of 4 rows from above:

| SMILES | mutations | read by | cells | strain or isolate | result |
|---|---|---|---|---|---|
| COc1ccc(-n2c(C)nnc2SCC(=O)Nc2ccc(C)cc2Cl)c2ccccc12 | Y188L | - | HeLa | - | 0.24 µM |
| Cc1cn([C@H]2C[C@H](N=[N+]=[N-])[C@@H](CO)O2)c(=O)[nH]c1=O | - | p24 | PBMC | IIIB | <0.1 µM |
| Cc1cc2c(C)cccc2c(-n2c(C)nnc2SCC(=O)Nc2ccccc2Br)c1C | Y188L | - | HeLa | - | 0.158 µM |
| Cc1cccc(C)c1OCC(=O)N[C@@H](Cc1ccccc1)[C@@H](O)C[C@H](Cc1ccccc1)NC(=O)[C@H](C(C)C)N1CCCNC1=O | PR-L10I L33F M46I I54V L63P A71L V77I V82A L90M | luciferase | HEK 293 + 293T | NL4-3 | 1.434 µM |